The assay deals with antiviral and redox response genes. Put plainly: Microarray gene expression analysis of VSVΔ51-infected 786-0 cells. It counts as cell-based, human. Particulars: DMF 200 μM, 24 h post infection, ifitim1, mx2, gbp4, ifi27, ifna, cxcl10, FIG. 5A, D.

Molecules are shown by their SMILES. Counter-ions that a name gives are not always drawn.

`COC(=O)/C=C/C(=O)OC` [DMF, dimethyl fumarate]: the “expression of antiviral genes up-regulated by VSVΔ51 infection” value is given as “inhibition of many of these”.

The record behind these values is patent publication US12440525B2 (priority 2017, dated 2025).
